Compound potency records, mixed from different reports. Data source: NIAID ChemDB in PubChem.

Shared fields: whole-cell or culture tests; organism: Measles virus; read-out: EC50

ECn is the concentration giving n% inhibition of infection, replication or growth.

{"compound": "CSc1nsc(-c2ccncc2)c1C#N", "method": "plaque count", "cell line": "HEP-2", "strain or isolate": "Edmonston", "value": ">2.5 µM"}
{"compound": "CCCc1cc(=O)oc2cc(OS(=O)(=O)c3ccc(C)cc3)cc(OS(=O)(=O)c3ccc(C)cc3)c12", "method": "cytopathic effect", "cell line": "CV-1", "strain or isolate": "X-1108", "value": "6 µg/mL"}
{"compound": "CSc1nsc(-c2ccc(Cl)cc2)c1C#N", "method": "plaque count", "cell line": "HEP-2", "strain or isolate": "Edmonston", "value": ">5 µM"}
{"compound": "CCCc1cc(=O)oc2cc(OS(=O)(=O)c3ccc(C)cc3)cc(O)c12", "method": "cytopathic effect", "cell line": "CV-1", "strain or isolate": "Chicago-1", "value": "1 µg/mL"}
{"compound": "COc1nsc(-c2ccccc2)c1C#N", "method": "plaque count", "cell line": "HEP-2", "strain or isolate": "Edmonston", "value": ">25 µM"}
{"compound": "Nc1ncnc2c1ncn2[C@@H]1CC[C@@H](O)[C@H]1O", "method": "neutral red", "cell line": "CV-1", "strain or isolate": "SA", "value": ">100 µg/mL"}
{"compound": "Nc1nc(=O)c2ncn([C@@H]3O[C@H](CO)[C@@H](O)[C@H]3O)c2c(=O)[nH]1", "method": "cytopathic effect", "cell line": "CV-1", "value": ">100 µM"}
{"compound": "Nc1ncnc2c1ncn2[C@@H]1C[C@H](N)[C@@H](O)[C@H]1O", "method": "neutral red", "cell line": "CV-1", "strain or isolate": "X-1108", "value": "15 µg/mL"}
{"compound": "CSc1nsc(C2CCCCC2)c1C#N", "method": "plaque count", "cell line": "HEP-2", "strain or isolate": "Edmonston", "value": ">50 µM"}
{"compound": "Nc1ncnc2c1ncn2[C@H]1C[C@@H](N)[C@H](O)[C@@H]1O", "method": "neutral red", "cell line": "CV-1", "value": ">100 µg/mL"}
{"compound": "CSc1nsc(-c2ccccn2)c1C#N", "method": "plaque count", "cell line": "HEP-2", "strain or isolate": "Edmonston", "value": ">50 µM"}
{"compound": "CCCc1cc(=O)oc2c3c(c4c(c12)OC(C)(C)[C@H](O)[C@@H]4O)O[C@H](C)[C@@H](C)[C@@H]3O", "method": "cytopathic effect", "cell line": "CV-1", "strain or isolate": "Chicago", "value": "5 µg/mL"}
{"compound": "CCNc1nc(=O)c2ncn([C@@H]3O[C@H](CO)[C@@H](O)[C@H]3O)c2c(=O)[nH]1", "method": "neutral red", "cell line": "CV-1", "value": "1.2 µM"}
{"compound": "Nc1ncnc2c1ncn2[C@@H]1C=C[C@@H](O)[C@H]1O", "method": "neutral red", "cell line": "CV-1", "strain or isolate": "Edmonston", "value": ">64 µg/mL"}
{"compound": "CCCc1cc(=O)oc2cc(OC(=O)C(C)(C)C)c3c(c12)OC(C)(C)C=C3", "method": "cytopathic effect", "cell line": "CV-1", "strain or isolate": "Chicago-1", "value": "0.6 µg/mL"}

Again, the opening 2 rows:

compound | method | cell line | strain or isolate | value
CSc1nsc(-c2ccncc2)c1C#N | plaque count | HEP-2 | Edmonston | >2.5 µM
CCCc1cc(=O)oc2cc(OS(=O)(=O)c3ccc(C)cc3)cc(OS(=O)(=O)c3ccc(C)cc3)c12 | cytopathic effect | CV-1 | X-1108 | 6 µg/mL

Lines come from different laboratories, so protocols vary.